Pooled drug test results. Numbers come from NIAID ChemDB, via PubChem.

All rows: cytotoxicity tests; cells: VERO; endpoint: CC50

CCn is the concentration with n% toxicity to the cells.

SMILES,value
c1ccc(CCN2CCN([C@@H](Cc3ccccc3)CN3CCCC3CN3CCNC[C@@H]3Cc3ccccc3)C[C@@H]2Cc2ccccc2)cc1,0.99 µg/mL
Cc1ccn2c(C(=O)NCc3ccc(NCCN4CCOCC4)c(F)c3)c(C)nc2c1,>32 µM
O=C(OCc1ccccc1)c1cc(COc2cc(C(F)(F)F)nc3c(C(F)(F)F)cccc23)on1,>128 µM
CC(C)(C)c1cc(C(C)(C)C)c2oc(-c3ccccc3Br)nc2c1,53.6 µg/mL
Cn1c(=O)cc2c3c(c(N)ccc31)C(=O)c1ccccc1-2,0.4 µg/mL
CCOC(=O)c1cc(COc2ccc3ncccc3c2)on1,>128 µM
Cc1[nH]nc2ccc(NS(=O)(=O)CCCC(F)(F)F)cc12,160 µM
CCN1C=Cc2nccc3cc(OC)c(OC)c1c23,46.8 µM
CCN(CC)CCN1c2ccc(C)cc2Sc2ccc3ccccc3c21,5.3 µg/mL
CCCCN1C=Cc2nccc3cc(OC)c(OC)c1c23,11.8 µM
CO[C@H]1/C=C/O[C@@]2(C)Oc3c(C)c(OC(C)=O)c4c(c3C2=O)C(=O)C=C(NC(=O)/C(C)=C\C=C\[C@H](C)[C@H](O)[C@@H](C)[C@@H](O)[C@@H](C)[C@H](OC(C)=O)[C@@H]1C)C4=O,5.32 µg/mL
COc1ccc(-n2c(Cc3nc4n(n3)CCCC4)n[nH]c2=S)cc1,>400 µg/mL
Nc1ccn(C[C@@H](CO)OCP(=O)(O)O)c(=O)n1,75 µg/mL
CCCCCCCCCN1C=Cc2nccc3cc(OC)c(OC)c1c23,2.1 µM
CCOC(=O)C(N)CCSC[C@H]1O[C@@H](n2ccc3c(N)ncnc32)[C@H](O)[C@@H]1O,100 µg/mL
COc1ncnc2c1ncn2O[C@H]1CS[C@@H](CO)O1,>100 µg/mL
CCCCC(=O)N/N=C/c1ccc([N+](=O)[O-])s1,3.89 µg/mL
CC(C1=NNC(=Nc2ccc(Cl)cc2)SC1)N1C(=O)c2ccccc2C1=O,64.15 µg/mL
Nc1nc(Cl)c2ncn(/C=C3/C[C@H]3CO)c2n1,52 µM
Cc1cc(NN)c2ccc(Cl)cc2n1,76.97 µg/mL
COc1cc(/C=C/c2ccccc2)oc(=O)c1,>102 µg/mL
CCCCCCCCCCCCCCCC[n+]1ccc2cc(OC)c(OC)c3c2c1C=CN3,2.2 µM
CCN(CC)Cc1cc(Nc2cc(Cl)c3ccc(N(C)C)cc3n2)ccc1O.Cl.Cl.Cl,2.65 µg/mL
Nc1ncnc2c([C@@H]3O[C@H](CO)C[C@H]3O)[nH]nc12,400 µg/mL
C[C@H]([C@@H]1CC[C@H](C)[C@@H](O)O1)[C@H]1CC[C@@]2(C)C3=C(CC[C@]12C)[C@@]1(C)CC[C@H](O)C(C)(C)C1CC3,>100 µg/mL
COc1cc2cc[n+](C)c3c2c(c1OC)NC=C3,58.4 µM
CCOc1ccc2c(N/N=C/c3ccc(N(CC)CC)cc3)ccnc2c1,6.4 µg/mL
CCOC(=O)c1cc(COc2ccc([N+](=O)[O-])c(C(F)(F)F)c2)on1,>128 µM
Cc1ccc2nc(C(F)(F)F)c(C(=O)NCc3ccc4c(c3)CCO4)n2c1,>32 µM
COc1cc2c3c(cc4ccccc4c3c1OC)N(C)C(=O)C2=O,>102 µg/mL
c1ccc(CCN2CCN([C@@H](Cc3ccccc3)CN3CCCC3CN3CCNC[C@@H]3Cc3ccccc3)C[C@H]2Cc2ccccc2)cc1,0.97 µg/mL
OC[C@H]1O[C@H](On2cnc3c(Cl)ncnc32)CS1,>100 µg/mL
COc1cc2ccnc3c2c(c1OS(C)(=O)=O)N(C)C=C3,3.5 µM
Cc1ccc(N=C2NN=C(C(C)N3C(=O)c4ccccc4C3=O)CS2)cc1,192 µg/mL
Nc1ncnc2c1ncn2[C@@H]1C[C@H](COP(=O)(O)O)[C@@H](O)[C@H]1O,>400 µg/mL
CCCCCCC[n+]1ccc2cc(OC)c(OC)c3c2c1C=CN3,3.9 µM
C[N+](C)(C)C(Cc1ccccc1)C(=O)[O-],>100 µg/mL
NNC(=O)c1cc(COc2cc(C(F)(F)F)nc3c(C(F)(F)F)cccc23)on1,>128 µM
O=C(Nc1cccc(Br)c1)c1ccc([N+](=O)[O-])o1,15.37 µg/mL
Nc1ncnc2c1ncn2O[C@@H]1CO[C@@H](CO)O1,>100 µg/mL
CCCCCCOC(=O)c1cc(COc2cc(C(F)(F)F)nc3c(C(F)(F)F)cccc23)on1,>128 µM
Nc1nc2c(ncn2[C@@H]2O[C@@H](CO)C=C2F)c(=O)[nH]1,>100 µM
CC(C1=NNC(=NCc2ccccc2)SC1)N1C(=O)c2ccccc2C1=O,192 µg/mL
COc1ccc(CNC(=O)c2ccc([N+](=O)[O-])o2)c(OC)c1,5.38 µg/mL
CCn1nc(Cc2n[nH]c(=S)o2)nc1C,≥400 µg/mL
Cc1cccc(Cc2ccc(Cl)cc2)c1O,4.2 µg/mL
Cc1cc2n[nH]c(Cl)c2cc1NS(=O)(=O)CCCCF,>160 µM
O=C(Nc1ccncc1)c1ccc([N+](=O)[O-])o1,6.86 µg/mL
CC(=O)OCc1cc(COc2cc(C(F)(F)F)nc3c(C(F)(F)F)cccc23)on1,>128 µM
Nc1ccn([C@H]2O[C@@H](CO)C=C2F)c(=O)n1,>100 µM
CC(C1=NNC(=Nc2ccccc2)SC1)N1C(=O)c2ccccc2C1=O,1000 µg/mL
C=C(C)[C@@H]1CC[C@]2(C(=O)O)CC[C@]3(C)[C@H](CC[C@@H]4[C@@]5(C)CCC(=O)C(C)(C)[C@@H]5CC[C@]43C)[C@@H]12,16.2 µg/mL
Nc1ncnc2c1ncn2[C@H]1O[C@@H](CO)[C@H](O)C1(F)F,>100 µM
COc1ncnc2c1ncn2O[C@@H]1CO[C@@H](CO)O1,>100 µg/mL
Cc1cn([C@H]2O[C@@H](CO)[C@H](O[Si](C)(C)C(C)(C)C)C2(F)F)c(=O)[nH]c1=O,>100 µM
CN(C(=O)c1ccc([N+](=O)[O-])o1)c1ccccc1,23.75 µg/mL
Cc1nc(Cc2n[nH]c(=S)n2-c2ccccc2)nn1C,400 µg/mL
C[C@H]([C@@H]1CC[C@H](C)[C@@H](O)O1)[C@H]1CC[C@@]2(C)C3=C(CC[C@]12C)[C@@]1(C)CC[C@@H](O)C(C)(C)C1CC3,>100 µg/mL
O=S(=O)(CCCC(F)(F)F)Nc1ccc2n[nH]c(Cl)c2c1,150 µM
O=c1[nH]cnc2c1ncn2[C@@H]1O[C@@H](CO)C=C1F,>100 µM
O=C1C=C(Nc2ccccc2C(=O)CC(=O)C(=O)Nc2cccc([N+](=O)[O-])c2)c2ccccc2C1=O,20.2 µg/mL
C[C@@]1(O)[C@H](O)[C@@H](COP(=O)(O)OP(=O)(O)OP(=O)(O)O)O[C@H]1n1ccc2c(N)ncnc21,250 µM
Nc1ncnc2c1ncn2C[C@H](O)CO,>400 µg/mL
CCCCc1ccc2nc(C)cc(NN)c2c1,13.4 µg/mL
Nc1ncnc2c1ncn2[C@H]1C[C@@H](CO)[C@H](O)[C@@H]1O,>400 µg/mL
O=C1c2ccccc2C(=O)N1CCCC1=NNC(=Nc2ccccc2)SC1,192 µg/mL
CCn1nc(CC(=O)NN=C(C)C)nc1C,400 µg/mL
CCCOC(=O)C(CCSC[C@H]1O[C@@H](n2ccc3c(N)ncnc32)[C@H](O)[C@@H]1O)NC(C)=O,40 µg/mL
CCN(CC)c1ccc2nc3c4ccccc4c(=NC(=O)c4ccccc4-c4c5ccc(N(CC)CC)cc5[o+]c5cc(N(CC)CC)ccc45)cc-3oc2c1.[Cl-],13.87 µg/mL
COc1cccc2c1C(=O)c1c(O)c3c(c(O)c1C2=O)C[C@@](O)(C(=O)CO)C[C@@H]3O[C@H]1C[C@H](N)[C@H](O)[C@H](C)O1,97 µM
Nc1nc(F)nc2c1ncn2[C@@H]1O[C@@H](CO)C=C1F,>100 µM
CCOC(=O)c1cc(COc2cccc3ncccc23)on1,>128 µM
Cc1cn2c(C(=O)NCc3ccc(N4CCN(C(=O)OCC(C)C)CC4)c(F)c3)c(C)nc2s1,>32 µM
Nc1nc2c(ncn2[C@@H]2C[C@@H](F)[C@H](CO)O2)c(=O)[nH]1,>100 µM
Nc1ncnc2c1ncn2C=C1CC1CO,28 µM
COc1ccc2c(N/N=C/c3ccc4c(c3)OCO4)cc(C)nc2c1,5.4 µg/mL
N#Cc1cc(C#N)c2[nH]c3ccccc3n2c1=O,61 µg/mL
CCN(CC)c1ccc(/C=N/Nc2ccnc3cc(OC)ccc23)cc1,7.2 µg/mL
CC(C1=NN=C(N(Cc2ccccc2)c2ccccc2)SC1)N1C(=O)c2ccccc2C1=O,192 µg/mL
CSCc1nc2ccccc2n1C(=O)OC(C)C,138 µM
COC1=C2C[C@@H](C)C[C@@H](OC)[C@@H](O)[C@H](C)/C=C(\C)[C@@H](OC(N)=O)[C@H](OC)/C=C\C=C(/C)C(=O)NC(=CC1=O)C2=O,350 µM
Cc1ccc(NC(=O)C(Cl)Cl)cc1Cl,2 µg/mL
CCc1nc2sc(C)cn2c1C(=O)NCc1ccc2c(c1)CCO2,>32 µM
Nc1nc(F)nc2c1ncn2[C@H]1O[C@@H](CO)C=C1F,~173 µM
CCOC(=O)c1cc(COc2ccc3cc[nH]c3c2)on1,>128 µM
Nc1nccc2c1ncn2[C@@H]1O[C@H](CO)C[C@H]1O,200 µg/mL
COc1cc2c(c(NC(C)CCCN=C(N)NC(N)=NC(C)C)c1)NCCC2,56 µg/mL
CC(C)(C)[Si](C)(C)O[C@H]1[C@H](CO)O[C@H](n2ccc(N)nc2=O)C1(F)F,>100 µM
COc1ccc(NC(=O)c2ccc([N+](=O)[O-])o2)cc1,21.44 µg/mL
O=C1c2ccccc2C(=O)N1CCC1=NNC(=Nc2ccccc2)SC1,192 µg/mL
CC(C)(C)c1cc(C(C)(C)C)c2oc(-c3ccncc3)nc2c1,39.3 µg/mL
Nc1ccn([C@@H]2C[C@@H](F)[C@H](CO)O2)c(=O)n1,>100 µM
Cc1ccc2nc(C)c(C(=O)NCc3ccc(C(F)(F)F)cc3)n2c1,>32 µM
C=C1C(=O)C23OC2C1CCC(=O)C1(C)CCC(OC(C)=O)C(C)(C)C1CC3=O,0.14 µg/mL
CC(=O)CCCCCCCCCCCCCCc1ccc2c(c1)OCO2,>102 µg/mL
CC(C)(C)C1=CC(=CC=C2C=CN(CCCCCCCCCCCO)C=C2)C=C(C(C)(C)C)C1=O,2 µg/mL
O=c1ccn([C@@H]2C[C@@H](F)[C@H](CO)O2)c(=O)[nH]1,>100 µM
CCCN1C=Cc2nccc3cc(OC)c(OC)c1c23,74.3 µM
Nc1nc(=O)n([C@@H]2O[C@@H](CO)C=C2F)cc1F,>100 µM
Nc1ncnc2c([C@@H]3O[C@H](CSCCC(N)C(=O)O)[C@@H](O)[C@H]3O)[nH]nc12,100 µg/mL
CCOC(=O)c1cc(C#N)c2[nH]c3ccccc3n2c1=O,150 µg/mL
OC(c1cc2c(Cl)cc(Cl)cc2c2cc(C(F)(F)F)ccc12)C1CCCCN1,0.95 µg/mL
Nc1nc2c(ncn2CSC(CO)CO)c(=O)[nH]1,900 µM

Lines come from different laboratories, so protocols vary.